Series [1] can be described thus: Isoelectric point as stated in the description. To be noted: method not given.
Another series concerns the target Nav1.5 (Homo sapiens, UniProt Q14524). As to the kind of experiment: Electrophysiological recording of the voltage-gated sodium channel, Nav1.5. To be noted: 100 nM.
Series [2] has as its system human skin fibroblasts HFF-1. Description: MTT cytotoxicity test on human skin fibroblasts HFF-1. To be noted: HFF-1 cells, 24 h. In general terms: Formazan colour is commonly taken as a measure of viable cells.
For another series, the system named is Nav1.4. To be noted: 100 nM.
Series [3] can be described thus: Isoelectric point by isoelectric focused electrophoresis. To be noted: purified polypeptide.
A further series addresses Nav1.7 (Homo sapiens, UniProt Q15858). Description: Electrophysiological recording of the voltage-gated sodium channel, Nav1.7. To be noted: 100 nM.
Another series addresses Nav1.2 (Homo sapiens, UniProt Q99250). Description: Electrophysiological recording of the voltage-gated sodium channel, Nav1.2. To be noted: 100 nM.
The test system of series [4] is wrinkles caused by UVB irradiation. Description: Anti-wrinkle effect on wrinkles caused by UVB irradiation in mice. To be noted: UVB-irradiated mice, score 0-6.

Amino acid sequences for entries named in this document (tags omitted).
UniProt Q14524, whole entry, looked up: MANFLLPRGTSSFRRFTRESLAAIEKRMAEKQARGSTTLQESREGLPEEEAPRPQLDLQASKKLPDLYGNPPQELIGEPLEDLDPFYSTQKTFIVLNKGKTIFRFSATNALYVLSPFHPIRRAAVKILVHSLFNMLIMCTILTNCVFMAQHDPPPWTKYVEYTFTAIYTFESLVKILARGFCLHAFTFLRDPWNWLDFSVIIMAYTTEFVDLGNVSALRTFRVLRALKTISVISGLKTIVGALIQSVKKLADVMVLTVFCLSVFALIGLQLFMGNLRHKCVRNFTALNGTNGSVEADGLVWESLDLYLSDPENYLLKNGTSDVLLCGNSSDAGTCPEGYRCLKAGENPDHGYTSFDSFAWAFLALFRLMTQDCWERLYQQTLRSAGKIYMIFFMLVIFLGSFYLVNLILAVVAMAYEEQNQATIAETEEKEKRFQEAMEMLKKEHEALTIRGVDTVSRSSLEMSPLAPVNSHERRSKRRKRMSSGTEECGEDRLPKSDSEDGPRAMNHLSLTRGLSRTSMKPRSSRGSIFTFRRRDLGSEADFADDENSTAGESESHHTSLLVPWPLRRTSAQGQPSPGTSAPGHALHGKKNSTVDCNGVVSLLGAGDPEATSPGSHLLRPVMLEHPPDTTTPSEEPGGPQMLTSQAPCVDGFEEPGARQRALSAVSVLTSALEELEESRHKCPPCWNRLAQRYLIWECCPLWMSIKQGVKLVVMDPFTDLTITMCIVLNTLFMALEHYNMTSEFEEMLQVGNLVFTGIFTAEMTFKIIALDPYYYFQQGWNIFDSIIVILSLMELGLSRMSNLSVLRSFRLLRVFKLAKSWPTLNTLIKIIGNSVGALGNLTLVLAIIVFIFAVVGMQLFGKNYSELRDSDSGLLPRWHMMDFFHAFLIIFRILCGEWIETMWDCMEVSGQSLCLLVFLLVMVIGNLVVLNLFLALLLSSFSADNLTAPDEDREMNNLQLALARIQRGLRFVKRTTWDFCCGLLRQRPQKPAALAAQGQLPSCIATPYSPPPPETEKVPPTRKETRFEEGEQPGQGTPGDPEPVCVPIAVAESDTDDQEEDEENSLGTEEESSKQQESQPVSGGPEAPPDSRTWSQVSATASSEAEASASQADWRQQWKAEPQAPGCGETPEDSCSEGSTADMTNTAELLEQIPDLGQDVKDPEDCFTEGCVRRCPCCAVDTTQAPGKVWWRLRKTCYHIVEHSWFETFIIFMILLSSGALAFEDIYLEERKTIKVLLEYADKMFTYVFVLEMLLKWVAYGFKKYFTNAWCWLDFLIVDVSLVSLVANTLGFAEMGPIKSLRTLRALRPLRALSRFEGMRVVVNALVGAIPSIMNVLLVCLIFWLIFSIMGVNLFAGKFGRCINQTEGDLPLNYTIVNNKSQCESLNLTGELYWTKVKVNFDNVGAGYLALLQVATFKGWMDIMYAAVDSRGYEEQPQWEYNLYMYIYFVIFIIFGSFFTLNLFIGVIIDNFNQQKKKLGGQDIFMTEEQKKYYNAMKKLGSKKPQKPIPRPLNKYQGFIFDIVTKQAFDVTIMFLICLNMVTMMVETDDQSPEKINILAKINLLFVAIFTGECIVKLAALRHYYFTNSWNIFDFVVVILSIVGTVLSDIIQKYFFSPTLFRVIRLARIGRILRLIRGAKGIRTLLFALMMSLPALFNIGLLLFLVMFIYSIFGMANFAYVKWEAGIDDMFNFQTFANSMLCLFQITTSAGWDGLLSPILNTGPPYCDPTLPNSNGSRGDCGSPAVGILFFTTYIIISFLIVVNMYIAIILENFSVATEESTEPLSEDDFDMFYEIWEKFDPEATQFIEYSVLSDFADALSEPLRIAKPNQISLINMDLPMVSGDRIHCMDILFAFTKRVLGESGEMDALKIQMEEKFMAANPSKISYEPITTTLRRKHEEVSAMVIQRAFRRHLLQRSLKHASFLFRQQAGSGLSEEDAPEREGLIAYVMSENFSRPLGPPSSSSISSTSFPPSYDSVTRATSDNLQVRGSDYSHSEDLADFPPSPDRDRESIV
UniProt Q15858, whole entry, looked up: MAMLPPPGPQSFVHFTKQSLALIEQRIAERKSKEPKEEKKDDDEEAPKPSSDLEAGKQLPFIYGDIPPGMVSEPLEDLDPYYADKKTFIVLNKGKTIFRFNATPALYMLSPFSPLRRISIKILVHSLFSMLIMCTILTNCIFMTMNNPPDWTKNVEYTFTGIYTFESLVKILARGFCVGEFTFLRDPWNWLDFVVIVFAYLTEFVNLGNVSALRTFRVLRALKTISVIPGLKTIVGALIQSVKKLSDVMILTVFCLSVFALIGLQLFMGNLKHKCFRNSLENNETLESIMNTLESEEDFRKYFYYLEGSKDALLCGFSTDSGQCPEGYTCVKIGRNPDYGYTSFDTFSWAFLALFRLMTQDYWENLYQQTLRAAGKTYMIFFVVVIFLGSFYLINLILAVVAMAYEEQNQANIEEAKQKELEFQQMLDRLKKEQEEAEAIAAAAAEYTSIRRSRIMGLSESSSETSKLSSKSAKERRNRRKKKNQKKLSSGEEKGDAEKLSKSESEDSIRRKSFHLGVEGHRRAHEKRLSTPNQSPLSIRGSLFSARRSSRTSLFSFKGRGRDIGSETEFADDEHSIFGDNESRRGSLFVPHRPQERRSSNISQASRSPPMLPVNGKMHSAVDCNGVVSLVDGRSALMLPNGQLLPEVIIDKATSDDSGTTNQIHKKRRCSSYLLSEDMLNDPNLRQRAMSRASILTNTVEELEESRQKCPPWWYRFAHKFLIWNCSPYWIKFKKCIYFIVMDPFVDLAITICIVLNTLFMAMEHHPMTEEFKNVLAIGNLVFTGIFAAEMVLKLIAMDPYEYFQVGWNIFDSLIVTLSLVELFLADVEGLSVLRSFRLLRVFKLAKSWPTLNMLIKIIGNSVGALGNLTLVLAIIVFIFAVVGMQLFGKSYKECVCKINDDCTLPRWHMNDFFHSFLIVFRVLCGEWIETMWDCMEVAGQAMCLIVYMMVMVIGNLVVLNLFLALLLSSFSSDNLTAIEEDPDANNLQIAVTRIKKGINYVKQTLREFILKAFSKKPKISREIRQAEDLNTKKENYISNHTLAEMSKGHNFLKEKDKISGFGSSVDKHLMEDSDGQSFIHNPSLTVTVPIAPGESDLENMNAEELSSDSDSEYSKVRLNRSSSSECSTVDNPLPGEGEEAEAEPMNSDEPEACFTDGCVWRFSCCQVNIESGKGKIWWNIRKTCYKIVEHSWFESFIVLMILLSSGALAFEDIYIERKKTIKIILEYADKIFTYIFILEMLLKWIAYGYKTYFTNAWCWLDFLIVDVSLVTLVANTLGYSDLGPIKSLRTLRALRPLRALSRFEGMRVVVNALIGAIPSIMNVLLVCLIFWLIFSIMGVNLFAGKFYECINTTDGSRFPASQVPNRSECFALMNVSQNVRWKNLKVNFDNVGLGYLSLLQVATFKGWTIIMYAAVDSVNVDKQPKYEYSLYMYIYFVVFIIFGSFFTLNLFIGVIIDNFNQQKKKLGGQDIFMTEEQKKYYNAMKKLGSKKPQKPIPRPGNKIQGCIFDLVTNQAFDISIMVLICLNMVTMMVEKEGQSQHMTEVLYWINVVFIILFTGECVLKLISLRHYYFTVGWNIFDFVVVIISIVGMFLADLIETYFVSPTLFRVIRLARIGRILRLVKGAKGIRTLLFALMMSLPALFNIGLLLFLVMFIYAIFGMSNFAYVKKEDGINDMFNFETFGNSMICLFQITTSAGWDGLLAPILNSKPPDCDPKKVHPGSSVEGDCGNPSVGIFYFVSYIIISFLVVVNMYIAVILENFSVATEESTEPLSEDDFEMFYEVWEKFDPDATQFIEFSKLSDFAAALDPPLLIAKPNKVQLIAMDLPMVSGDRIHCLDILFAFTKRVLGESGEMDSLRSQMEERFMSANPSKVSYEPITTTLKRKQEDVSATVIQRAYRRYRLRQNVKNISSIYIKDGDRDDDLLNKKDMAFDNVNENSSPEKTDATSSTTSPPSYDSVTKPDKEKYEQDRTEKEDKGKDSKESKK
UniProt Q99250, whole entry, looked up: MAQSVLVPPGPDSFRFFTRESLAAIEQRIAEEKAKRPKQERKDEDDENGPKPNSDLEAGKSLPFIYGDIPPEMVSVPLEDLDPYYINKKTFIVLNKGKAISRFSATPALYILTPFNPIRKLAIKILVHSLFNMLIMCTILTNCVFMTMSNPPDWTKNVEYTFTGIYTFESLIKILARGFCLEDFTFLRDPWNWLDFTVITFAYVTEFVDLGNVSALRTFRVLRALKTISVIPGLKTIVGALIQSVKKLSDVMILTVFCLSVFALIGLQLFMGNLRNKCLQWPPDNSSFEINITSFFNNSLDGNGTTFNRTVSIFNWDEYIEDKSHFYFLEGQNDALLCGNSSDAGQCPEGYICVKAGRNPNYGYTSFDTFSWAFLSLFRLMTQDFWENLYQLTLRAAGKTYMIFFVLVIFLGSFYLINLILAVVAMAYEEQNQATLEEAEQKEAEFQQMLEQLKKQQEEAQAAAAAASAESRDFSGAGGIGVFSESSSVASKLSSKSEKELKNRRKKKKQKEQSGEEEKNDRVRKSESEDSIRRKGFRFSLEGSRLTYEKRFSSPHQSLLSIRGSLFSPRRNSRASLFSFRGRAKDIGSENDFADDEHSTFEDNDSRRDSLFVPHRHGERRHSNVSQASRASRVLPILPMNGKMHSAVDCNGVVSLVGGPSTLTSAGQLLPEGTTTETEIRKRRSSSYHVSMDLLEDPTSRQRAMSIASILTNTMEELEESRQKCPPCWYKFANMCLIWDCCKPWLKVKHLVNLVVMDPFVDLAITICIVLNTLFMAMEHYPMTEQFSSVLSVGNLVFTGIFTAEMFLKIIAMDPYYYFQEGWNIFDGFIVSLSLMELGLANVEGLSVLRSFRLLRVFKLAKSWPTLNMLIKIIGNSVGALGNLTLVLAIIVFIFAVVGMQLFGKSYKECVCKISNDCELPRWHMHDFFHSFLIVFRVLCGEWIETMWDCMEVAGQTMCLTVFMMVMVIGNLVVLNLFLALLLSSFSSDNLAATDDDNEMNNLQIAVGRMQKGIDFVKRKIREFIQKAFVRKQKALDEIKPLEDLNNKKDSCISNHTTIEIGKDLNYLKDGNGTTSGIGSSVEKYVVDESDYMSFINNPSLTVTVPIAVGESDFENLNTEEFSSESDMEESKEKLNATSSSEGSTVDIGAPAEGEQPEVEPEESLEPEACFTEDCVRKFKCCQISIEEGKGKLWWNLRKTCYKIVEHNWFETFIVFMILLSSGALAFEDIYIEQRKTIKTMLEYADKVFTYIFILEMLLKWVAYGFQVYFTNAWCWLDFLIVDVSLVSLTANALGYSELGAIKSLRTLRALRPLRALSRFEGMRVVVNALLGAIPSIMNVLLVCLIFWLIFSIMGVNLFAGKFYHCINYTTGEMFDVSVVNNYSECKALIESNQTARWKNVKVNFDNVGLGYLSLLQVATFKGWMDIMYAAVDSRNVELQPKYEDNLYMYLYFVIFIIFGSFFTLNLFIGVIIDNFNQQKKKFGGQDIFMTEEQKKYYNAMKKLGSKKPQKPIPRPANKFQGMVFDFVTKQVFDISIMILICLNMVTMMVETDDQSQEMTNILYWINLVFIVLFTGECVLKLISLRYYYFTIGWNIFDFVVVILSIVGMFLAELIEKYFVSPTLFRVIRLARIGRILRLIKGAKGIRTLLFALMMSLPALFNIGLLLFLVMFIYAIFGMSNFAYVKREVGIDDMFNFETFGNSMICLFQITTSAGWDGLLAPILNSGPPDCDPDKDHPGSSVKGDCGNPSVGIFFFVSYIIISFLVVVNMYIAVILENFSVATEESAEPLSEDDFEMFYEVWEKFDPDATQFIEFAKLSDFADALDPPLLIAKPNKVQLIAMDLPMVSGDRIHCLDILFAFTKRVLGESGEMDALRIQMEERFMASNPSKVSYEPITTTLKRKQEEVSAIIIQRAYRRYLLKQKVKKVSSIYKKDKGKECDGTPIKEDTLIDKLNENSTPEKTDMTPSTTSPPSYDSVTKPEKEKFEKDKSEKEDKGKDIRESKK

SMILES strings stand for the structures.

As for `CC[C@H](C)[C@H](NC(=O)[C@H](C)NC(=O)[C@H](CC(N)=O)NC(C)=O)C(=O)N[C@H]1CSSC[C@@H]2NC(=O)[C@H](CC(N)=O)NC(=O)[C@H](CCCNC(=N)N)NC(=O)[C@H](CO)NC(=O)[C@H](C)NC(=O)[C@@H]3CSSC[C@@H](C(=O)O)NC(=O)[C@H](CSSC[C@H](NC1=O)C(=O)NCC(=O)N[C@@H](Cc1ccccc1)C(=O)N1CCC[C@H]1C(=O)N[C@@H](CCCNC(=N)N)C(=O)N[C@@H](CO)C(=O)N3)NC(=O)[C@H](CCCNC(=N)N)NC(=O)[C@H](Cc1c[nH]cn1)NC(=O)[C@@H]1CCCN1C(=O)[C@H](CCCNC(=N)N)NC2=O`, the isoelectric point in series [1] and in [3] was 9.01 each time. In addition, at Nav1.5, the “activity on Nav1.5” value was “virtually inactive”. Moreover, the Cytotoxicity % in [2] (concentration 1 g/ml as printed in head) is on record as 0.00%; in series [2] (concentration 50 g/ml as printed in head) it was 1.25 ± 0.32%; in series [2] (concentration 200 g/ml as printed in head (200 μg/ml in text)), 2.67%. For the same compound, the “content range of each sample relative to the theoretical content” value (in lanolin, theoretical content 1 mg/g) is ≤ 90%. Further, for the setting “in lanolin, theoretical content 1 mg/g, 20 samples”, the “average content of the polypeptide in 20 samples” value was determined as 0.90 ± 0.05 mg/g. The “dispersion in the lipid environment” value (lanolin) is listed as “good dispersion”. The “electrical conduction in the muscle retained” value with Nav1.4 was “about 10%”. Moreover, in the series on Nav1.4, the “inhibition of the current in Nav1.4” value was “about 90%”. Further, the “activity on Nav1.7” value at Nav1.7 was “virtually inactive”. The “activity on Nav1.2” value at Nav1.2 was “virtually inactive”. Moreover, the Wrinkle score at week 6 in series [4] (10 ng/mouse topical daily) was 1.16 ··; in [4] (100 ng/mouse topical daily) it was 2.42 ··. In addition, the Wrinkle score at week 9 in [4] (10 ng/mouse topical daily) is 1.47 ··; in series [4] (100 ng/mouse topical daily), 2.68 ··.

Source of the values: patent US20250241837A1, “MODIFIED CONE SNAIL POLYPEPTIDE, PREPARATION METHOD AND USE THEREOF” (published 2025).
